The values that follow come from ChEMBL document CHEMBL2401675, “Design, synthesis, and biological evaluation of novel dipeptide-type SARS-CoV 3CL protease inhibitors: structure-activity relationship study” (Eur J Med Chem, 2013).

For this test, the target named is Replicase polyprotein 1a (Severe acute respiratory syndrome-related coronavirus, UniProt P0C6U8). Put plainly: Inhibition of SARS coronavirus Chymotrypsin-like protease using H-Thr-Ser-Ala-Val-Leu-Gln-Ser-Gly-Phe-Arg-Lys-NH2 as substrate by fluorescence assay.

Each structure is given as a SMILES string.

As a reminder, the IC50 is the concentration that gives 50% inhibition. Low values mean greater potency in that assay, high ones weaker potency in that assay. A word on the Ki: it is a dissociation constant, usually derived from enzyme kinetics or from competition with a known ligand. Low values mean a stronger hold on the target, high ones a looser hold on the target. As for `COc1ccccc1NCC(=O)N[C@@H](CC(C)C)C(=O)N[C@@H](C[C@@H]1CCNC1=O)C(=O)c1nc2ccccc2s1`, the IC50 is 14 µM and affinity was put at a Ki of 0.33 µM.

Regarding `CC(C)C[C@H](NC(=O)COc1ccccc1)C(=O)N[C@@H](C[C@@H]1CCNC1=O)C(=O)c1nc2ccccc2s1`, the concentration for half-maximal inhibition (IC50) turned out to be 24 µM and affinity was put at a Ki of 0.56 µM.

For `CC(C)C[C@H](NC(=O)OCc1ccccc1)C(=O)N[C@@H](C[C@@H]1CCNC1=O)C(=O)c1nc2ccccc2s1`, it took 21 µM to reach half-maximal inhibition (IC50) and the Ki was determined as 0.46 µM.
